Results from PMC7108845, “An Alphaherpesvirus Exploits Antimicrobial β-Defensins To Initiate Respiratory Tract Infection” (Journal of Virology, 2020).

tested on: EHV1; assay type: cell-based, equine herpesvirus type 1

Row | Sequence | subsequent EHV1 infection in EREC | susceptibility of EREC to EHV1 infection (number of plaques)
1 | MRAPYFLLLTLCLFCCQMSSGVGYLTGLGHRSDHYICARSGGTCHFSSCPLFTKIEGTCYGGKAKCCL (also: bicyclic or more (positions not given here)) [eBD1, chemically synthesized equine β-defensin, named according to its human homolog] | enhanced | more susceptible to EHV1 infection
2 | MRIHFLLFALLFLFLMPVPGNGGIINMLQKSYCKIRKGRCALLGCLPKEEQIGSCSVSGRKCCRKKK (also: bicyclic or more (positions not given here)) [eBD3, chemically synthesized equine β-defensin, named according to its human homolog] | enhanced | more susceptible to EHV1 infection
3 | MRILHFLLAFLIVFLLPVPGFTAGIETSFSCSQNGGFCISPKCLPGSKQIGTCILPGSKCCRKK (also: bicyclic or more (positions not given here)) [eBD2, chemically synthesized equine β-defensin, named according to its human homolog] | enhanced | more susceptible to EHV1 infection
